Compound potency records, mixed from different reports. Data source: NIAID ChemDB in PubChem.

All rows: cytotoxicity tests; cells: L1210; measure: CC50

CCn is the concentration with n% toxicity to the cells. Rows are shuffled and stem from different studies.

SMILES | value
Nc1nc(N)c2nc(CNc3ccc(C(=O)NC(CP(=O)(O)O)C(=O)O)cc3)cnc2n1 | 0.25 µM
N#Cc1ncn(CCc2ccc(Cl)cc2Cl)c1/N=c1\ssnc1Cl | 5 µM
CO[C@H]1O[C@H](Cn2cc(Cl)c(=O)[nH]c2=O)[C@H](O)[C@H]1OCc1ccccc1F | >250 µM
N#Cc1cnn(-c2ccccc2)c1/N=c1\ssnc1Cl | 7.5 µM
Nc1nc(N)c2nc(CNc3ccc(C(=O)NC(CCCCP(=O)(O)O)C(=O)O)cc3)cnc2n1 | 0.13 µM
Nc1cc(OC[C@H]2CC[C@@H](COCc3ccccc3)O2)nc(N)n1 | >250 µM
CC[C@@H]1/C=C(\C)C[C@H](C)C[C@H](OC)[C@H]2O[C@@](O)(C(=O)C(=O)N3CCCC[C@H]3C(=O)O[C@H](/C(C)=C/[C@H]3CC[C@H](O)[C@H](OC)C3)[C@H](C)[C@@H](O)CC1=O)[C@H](C)C[C@@H]2OC | 34 µg/mL
Nc1ccnc(OC[C@H]2CC[C@@H](CO)O2)n1 | ≥250 µM
Cn1ncc(C#N)c1/N=c1\ssnc1Cl | 5 µM
c1ccc(COC[C@H]2CC[C@@H](COc3cc(OC[C@H]4CC[C@@H](COCc5ccccc5)O4)ncn3)O2)cc1 | 20 µM
CO[C@H]1O[C@H](Cn2cc(Br)c(=O)[nH]c2=O)[C@H](O)[C@H]1OCc1ccccc1F | >250 µM
CC(C)(C)n1ncc(C#N)c1/N=c1\ssnc1Cl | 5 µM
COc1cc(OC[C@H]2CC[C@@H](CO)O2)nc(N)n1 | >250 µM
CO/C=C(/C(=O)OC)[C@H](C)[C@H](/C=C/c1ccccc1)OC(C)=O | 25 µg/mL
Nc1nccc(OC[C@@H]2O[C@H](CO)[C@@H](O)[C@H]2O)n1 | >250 µM
CN1CCc2c(sc(/N=c3\ssnc3Cl)c2C#N)C1 | 8 µM
CO/C=C1\C[C@H](/C=C/c2ccccc2)OC1=O | >50 µg/mL

Repeating the final 2 entries:

SMILES	value
CN1CCc2c(sc(/N=c3\ssnc3Cl)c2C#N)C1	8 µM
CO/C=C1\C[C@H](/C=C/c2ccccc2)OC1=O	>50 µg/mL